Data as given in PubChem BioAssay AID624099 (ICCB-Longwood, 2012)

Aim: 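Knock-downs relieving repression by E2 of an HPV18 LCR luciferase reporter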 (primary screen)
Cell system: human C33A cervical carcinoma cells (HPV-negative) stably expressing BPV1 E2 and an HPV18 LCR luciferase reporter
Knock-down reagent: siRNA pool against human genes, 40 nM
Time to read-out: 72 h
Detection: 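Per-well luciferase luminescence, z-scored on each plate against the plate mean and SD with control wells left out, then averaged across three replicate plates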
Direction: mean z-score and z-score: higher = stronger reporter signal, weaker E2 silencing
Rule for the call: 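Mean z ≥ 2 together with z ≥ 2 in two or more of the three replicates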
Shown is a random part of about 21,000 reagents tested. 497 of all reagents (2.4%) were called active. 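Higher z means weaker E2 silencing; only reporter increases were scored, and knock-downs that hurt cell survival may mask genuine repressor factors.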 A number with no mark means an inactive call.

With knock-down of PSORS1C1 (psoriasis susceptibility 1 candidate 1) the results were mean z-score 0.41; z-score, replicate A = 0.04; z-score, replicate B = 0.46; z-score, replicate C = 0.74.
Silencing of TPH1 (tryptophan hydroxylase 1) gave: mean z-score 0.72; z-score, replicate A = 0.87; z-score, replicate B = 0.6; z-score, replicate C = 0.71.
Against TMOD4 (tropomodulin 4) the deposit lists mean z-score 0.48; z-score, replicate A = 0.99; z-score, replicate B = 0.17; z-score, replicate C = 0.29.
With knock-down of LOC284901 (retired record), the record shows mean z-score -0.08; z-score, replicate A = 0.11; z-score, replicate B = -0.45; z-score, replicate C = 0.11.
HOXC5 (homeobox C5) showed mean z-score 2.47 (active); z-score, replicate A = 2.35; z-score, replicate B = 2.6; z-score, replicate C = 2.46.
Depletion of AOX1 (aldehyde oxidase 1) resulted in: mean z-score -1.19; z-score, replicate A = -1.23; z-score, replicate B = -1.15; z-score, replicate C = -1.2.
Against FBXW7 (F-box and WD repeat domain containing 7), the entry reads mean z-score -0.13; z-score, replicate A = 0.17; z-score, replicate B = -0.5; z-score, replicate C = -0.06.
Against LINC01144 (long independently transcribed non-coding RNA 1144), the entry reads mean z-score 1.08; z-score, replicate A = 1.24; z-score, replicate B = 0.89; z-score, replicate C = 1.12.
Depletion of LOC145845 resulted in: mean z-score -1.2; z-score, replicate A = -1.77; z-score, replicate B = -0.56; z-score, replicate C = -1.27.
With knock-down of KCNK2 (potassium two pore domain channel subfamily K member 2), the screen gave mean z-score 0.9; z-score, replicate A = 0.89; z-score, replicate B = 0.62; z-score, replicate C = 1.19.
With knock-down of BALR6 (B-cell acute lymphoblastic leukemia associated long RNA 6), the record shows mean z-score -0.53; z-score, replicate A = -0.25; z-score, replicate B = -0.82; z-score, replicate C = -0.52.
Silencing of CCNA1 (cyclin A1) came out at: mean z-score 0.14; z-score, replicate A = -0.08; z-score, replicate B = 0.18; z-score, replicate C = 0.31.
For FN3K (fructosamine 3 kinase), the entry reads mean z-score 0.02; z-score, replicate A = 0.25; z-score, replicate B = -0.17; z-score, replicate C = -0.04.
With knock-down of SCAI (suppressor of cancer cell invasion) the results were mean z-score 0.47; z-score, replicate A = 0.64; z-score, replicate B = 0.33; z-score, replicate C = 0.43.
With knock-down of CERT1 (ceramide transporter 1) the results were mean z-score -0.39; z-score, replicate A = -0.19; z-score, replicate B = -0.39; z-score, replicate C = -0.59.
Against LOC389385 (retired record) the deposit lists mean z-score -0.57; z-score, replicate A = -0.59; z-score, replicate B = -1.06; z-score, replicate C = -0.07.
LOC400681 (retired record) scored mean z-score 0.05; z-score, replicate A = -0.02; z-score, replicate B = 0.05; z-score, replicate C = 0.12.
With knock-down of LOC400590 (retired record), the record shows mean z-score 1.37; z-score, replicate A = 1.87; z-score, replicate B = 0.65; z-score, replicate C = 1.6.
SUGP2 (SURP and G-patch domain containing 2) showed mean z-score 1.39; z-score, replicate A = 1.29; z-score, replicate B = 1.57; z-score, replicate C = 1.3.
RPS27P17 (ribosomal protein S27 pseudogene 17) gave mean z-score -2.72; z-score, replicate A = -2.77; z-score, replicate B = -2.21; z-score, replicate C = -3.19.
Against KMT5B (lysine methyltransferase 5B), the entry reads mean z-score 0.06; z-score, replicate A = 0.16; z-score, replicate B = -0.51; z-score, replicate C = 0.52.

Laid out differently: 2 of the entries above.
HOXC5 (homeobox C5)
- mean z-score: 2.47 (active)
- z-score, replicate A: 2.35
- z-score, replicate B: 2.6
- z-score, replicate C: 2.46

AOX1 (aldehyde oxidase 1)
- mean z-score: -1.19
- z-score, replicate A: -1.23
- z-score, replicate B: -1.15
- z-score, replicate C: -1.2
